Experimental data taken from PubChem BioAssay AID1251 (SRMLSC, 2008).
The list shows a part of the results, in another mix than the full data. The source made the active and inactive calls. Cut-off read from the data, not from the text of the source: active = inhibition above about 30%; inactive = the rest, inconclusive results apart.

Assay: inhibitors of arbovirus infection in cells – cell-based, full library, 10K replicate subset, primary screen (AID 1251)
Details: arbovirus infection cell-based antiviral screen; at 10 µM; hits give high values

| Structure (SMILES) | inhibition |
| --- | --- |
| O=C(NCC1(N2CCOCC2)CCCCC1)c1cc(=O)[nH]c2ccccc12 | inactive: 6.42% |
| CN1CCN(CCOC(=O)C(O)(c2ccccc2)c2ccccc2)CC1 | inactive: 2.68% |
| COc1ccc(NC2CCN(C(=O)OC(C)(C)C)CC2)cc1 | inactive: 0.72% |
| N#CC1(Nc2ccccc2)CCN(CCc2ccccc2)CC1 | inactive: 3.48% |
| O=C(NCC1(N2CCCCC2)CCCCC1)c1cccc([N+](=O)[O-])c1 | inactive: 4.7% |
| CC(C)c1ccc(NC2CCN(C(=O)OC(C)(C)C)CC2)cc1 | inactive: 22.8% |
| CN(C)c1cccc(C(=O)NCC2(N3CCCCC3)CCCCC2)c1 | inactive: 8.06% |
| COc1ccc(CN(CCCl)CCCl)cc1Cl | inactive: -0.34% |
| O=C(NCC1(N2CCOCC2)CCCCC1)c1cc2ccccc2o1 | inactive: -2.15% |
| O=C(OC1CN2CCC1CC2)C1c2ccccc2Oc2ccccc21 (stereo not given) | inactive: 3.15% |
| CCOC(=O)N1CCC(Nc2ccc(OC)cc2)CC1 | inactive: 2.16% |
| COc1ccc(C(=O)NCC2(N3CCCCC3)CCCCC2)c(OC)c1OC | inactive: -0.48% |
| COc1ccc(NC2CCN(CCc3ccccc3)CC2)c(OC)c1 | inactive: -10.1% |
| CCN1CCC(Nc2cccc(F)c2)CC1 | inactive: -6.04% |
| CN(C)c1ccc(C(=O)NCC2(N3CCCCC3)CCCCC2)cc1 | inactive: -2.69% |
| Fc1ccccc1NC1CCN(Cc2ccccc2)CC1 | inactive: -3.97% |
| COc1cc(OC)cc(C(=O)NCC2(N3CCOCC3)CCCCC2)c1 | inactive: 1.83% |
| CCC(CO)(C(=O)OC1CN2CCC1CC2)c1ccccc1 (stereo not given) | inactive: 6.56% |
| CCOc1ncccc1C(=O)NCC1(N2CCOCC2)CCCCC1 | inactive: 8.67% |
| CC(C)(C)OC(=O)N1CCC(Nc2ccccc2)CC1 | inactive: 0.43% |
| N/C(=N\O)c1c(N)no[n+]1[O-] | inactive: 1.78% |
| O=C(OC1CN2CCC1CC2)C1c2ccccc2C=Cc2ccccc21 (stereo not given) | inactive: -22.6% |
| COc1ccc(C(=O)NCC2(N3CCOCC3)CCCCC2)cc1OC | inactive: 6.12% |
| c1ccc(CN2CCC(Nc3ccccc3)CC2)cc1 | inactive: -8.73% |
| N#Cc1ccc(C(=O)NCC2(N3CCCCC3)CCCCC2)cc1 | inactive: 3.33% |
